In PubChem BioAssay AID585 (National Center for Advancing Translational Sciences (NCATS), 2007):
This is a selection; strong and weak results do not stand in their true shares. The source made the active and inactive calls. Calls come from the whole dose curve.

By UniProt entry, the sequences of proteins in these tests, tags left out.
UniProt P00811, whole entry: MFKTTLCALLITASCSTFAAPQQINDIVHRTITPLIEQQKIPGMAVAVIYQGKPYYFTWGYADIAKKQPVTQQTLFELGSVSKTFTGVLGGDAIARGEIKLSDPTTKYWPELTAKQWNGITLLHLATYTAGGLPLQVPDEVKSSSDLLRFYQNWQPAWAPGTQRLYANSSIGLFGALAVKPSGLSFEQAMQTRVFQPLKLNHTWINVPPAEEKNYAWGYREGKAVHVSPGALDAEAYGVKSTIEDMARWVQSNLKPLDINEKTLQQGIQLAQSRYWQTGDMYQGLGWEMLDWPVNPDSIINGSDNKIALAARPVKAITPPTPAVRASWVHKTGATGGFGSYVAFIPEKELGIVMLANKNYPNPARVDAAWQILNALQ

molecular target: Beta-lactamase (Escherichia coli (strain K12)) (UniProt P00811); assay: Promiscuous and Specific Inhibitors of AmpC Beta-Lactamase (assay without detergent); details: AmpC nitrocefin hydrolysis, absorbance 480 nm, no detergent; at 28.7 µM (top of the series); note: % of control where 0% means no effect
Description: NIH Molecular Libraries Screening Centers Network [MLSCN]
NIH Chemical Genomics Center [NCGC]
PI Name: Shoichet, Brian K.
This aggregation profiling approach exploits the sensitivity of aggregate formation to detergent. Inhibition of b-lactamase is measured in the presence and absence of 0.01% Triton X-100. See Pubchem assay "Promiscuous and Specific Inhibitors of AmpC Beta-Lactamase (assay with detergent)" for related screen. Compounds that inhibit only in the absence of detergent are considered likely promiscuous aggregators.
A screen of 1,030 compounds was performed in Brian Shoichet's lab in 96-well format. AmpC activity was measured by following the absorbance at 480 nm. Nitrocefin is a chromogenic substrate: while nitrocefin is yellow (lmax 390 nm), the product of its hydrolysis is red (lmax 486 nm, 17,000 M-1). AmpC beta lactamase was provided by Brian Shoichet and Brian Feng, UCSF.
NCGC Assay Protocol Summary:
20 mM phosphate buffer, pH 7.0
Triton X-100: No Detergent screen: 0.0001%, Detergent screen: 0.01%.
Buffer in columns 3 and 4 as negative control (no enzyme).
5.3 nM AmpC in columns 1, 2, 5-48. […]
Six uL of reagents were dispensed to 1536-well Greiner black clear bottom plates. […] The plates were immediately transferred to and read every 20 seconds for 4 min on ViewLux (Perkin-Elmer) High-throughput CCD imager using 480 nm absorbance protocol. […]

Q: Which activity change, negative = inhibition does the source give for `c1nnnn1CCn1cnnn1` here?
A: The activity change, negative = inhibition was inactive: -1.4%.

Q: With `CN(C(=O)Cc1ccc(Cl)c(Cl)c1)[C@H]1CCCC[C@@H]1N1CCCC1` as the molecule, how does the activity change, negative = inhibition read?
A: Its activity change, negative = inhibition is inactive: 11.8%.
